From article PMC10374146 come the findings set out here.

Construct, isoform or probe ends are uncertain for at least one entry. At least one verdict rests on a figure or table, not on a statement of the authors.

The series concerns the target Irr (iron response regulator) (Brucella melitensis M5-90) (UniProt Q842L5). Put plainly: EMSA. Particulars: protein translated in vitro; protein details: Halo (pDAP-Halo-Kan vector); label: biotin. A general note: A gel shift assay detects complexes by their altered migration in electrophoresis.

Consider “AGGAATAATCATGCGTCTTAC (double strand) [BME_RS13665-2 (rirA)]”, for which the binding result is listed as “binds”.
With “CATTCTTAAAATATATGAAAC (double strand) [BME_RS13665-1 (rirA)]”, the binding result is “binds”.
